We go through one molecule from patent US5055459A, “Selective elimination of malignant cells from bone marrow by bis (acyloxy) propylphosphoramidates” (Board of Regents, The University of Texas, priority 1989, dated 1991).

Experiment [1] has as its system cyclophosphamide-resistant L1210 and P-388 cell-lines. Conditions: cited from earlier work.
For experiment [2], the system named is L1210 lymphatic leukemia cells. Kind of experiment: In vitro cytotoxicity to L1210 lymphatic leukemia cells, 72 hr, MTT (Table 2). It is filed as cell-based, murine. As to conditions: concentration that kills 50% of the cells; 72 hr at 37° C.; concentration range 0.5-20 microgram/ml.

Take `NP(=O)(O)N(CCCl)CCCl`: the “potentiation by aldehyde dehydrogenase inhibitors” value in experiment [1] is recorded as “no potentiation was observed”. The molecule further displayed an ED50 in experiment [2] of 18.0 microgram/ml.
